Values quoted from earlier work, collected in patent publication US20090088378A1, “LONG LASTING INHIBITORS OF VIRAL INFECTION” (priority 2007, published 2009).

Test system: NL4-3 (G36D mutation in gp41)
Conditions: in vitro; cited from earlier work

enfuvirtide
resistance to T-20 conferred by DIV (G36D) mutation in gp41: 8 fold
